Pooled drug test results. Numbers come from NIAID ChemDB, via PubChem.

Shared fields: tests in culture; organism: HIV-1; read-out: EC90

Rows are shuffled and stem from different studies.

structure | strain | mutations | cell line | read by | result
CCC[C@]1(CCc2ccccc2)CC(O)=C([C@H](CC)c2cccc(NS(=O)(=O)c3ccc(C(F)(F)F)cn3)c2)C(=O)O1 | IIIB | - | H9 | - | 0.84 µM
NC(=O)c1ncn([C@@H]2O[C@H](CO)[C@@H](O)[C@H]2O)n1 | LAV | - | C3 | p24 | 178 µM
COCc1c(CNCC(C)C)cc2cc(OC)c(OC)cc2c1-c1ccc(OC)c(OC)c1 | CONB/pNL43E-Luc+ | - | U87 (CD4+ CCR5+) + U87 | luciferase | 4.38 µg/mL
Cc1cc(O)c(C)c(C(=O)N[C@@H](Cc2ccc(-c3ccccc3)cc2)[C@H](O)C(=O)N2C[C@@H](Cl)C[C@H]2C(=O)NC(C)(C)C)c1 | IIIB | - | CEM | p24 | 0.048 µM
CCNC1=CC(=O)C(C[C@]2(C)C(C)CCC3(C)C(C)=CCCC32)=CC1=O | IIIB | - | C8166 | syncytia | >18.6 µM
CCC[C@]1(CCc2ccccc2)CC(O)=C([C@@H](CC)c2cccc(NS(=O)(=O)c3ccc(C(F)(F)F)cn3)c2)C(=O)O1 | IIIB | - | H9 | - | 3 µM
COC(=O)[C@H](C)NP(=O)(OC[C@H]1O[C@@H](n2cc(C)c(=O)[nH]c2=O)C[C@@H]1N=[N+]=[N-])Oc1ccccc1 | BaL | - | MM + M/M | antigen | 0.1 µM
COc1nc(Cc2ccccc2)c(C)c(=O)[nH]1 | IIIB | - | MT-4 | MTT / virus yield | >200 µM
Cc1cn([C@H]2C[C@H](N=[N+]=[N-])[C@@H](CO)O2)c(=O)[nH]c1=O | 472 clinical isolates AZT-resistant | - | PBMC | p24 | 1.4 µM
CCc1c(Cc2ccccc2)nc(OC)[nH]c1=O | IIIB | - | MT-4 | MTT / virus yield | 157 µM
Cc1c(O)cccc1C(=O)N[C@@H](CCc1ccccc1)[C@H](O)C(=O)N1C[C@@H](Cl)C[C@H]1C(=O)NC(C)(C)C | IIIB | - | CEM | p24 | 0.73 µM
COc1ccc(S(=O)(=O)N(CC2CCCC2)C[C@@H](O)[C@H](Cc2ccccc2)NC(=O)O[C@H]2CCOC2)cc1 | IIIB | - | CEM + CEM-SS | - | 0.023 µM
CC(C)Nc1cccnc1N1CCN(C(=O)c2cc3cc(NS(C)(=O)=O)ccc3[nH]2)CC1 | IIIB | - | H9 | p24 | 0.045 µM
Cc1cn([C@H]2C[C@H](C#N)[C@@H](CO)O2)c(=O)[nH]c1=O | CBL-1 | - | C8166 | cytopathic effect | >100 µg/mL
C1CNCCNCCCN[C@H]([C@@H]2CNCCCNCCNCCCN2)CNC1 | IIIB | - | PBL | p24 / ELISA | 3.77 µM
CCc1cc(NCc2nc3c(Cl)ccc(Cl)c3o2)c(=O)[nH]c1C | DLV-resistant IIIB (RT-L100I) | RT-L100I | MT-4 | p24 | 4 µM
CC(C)Nc1cccnc1N1CCN(C(=O)c2cc3cc(NS(C)(=O)=O)ccc3[nH]2)CC1 | IIIB | - | H9 | p24 | 0.05 µM
CCC[C@@]1(CCc2ccccc2)CC(O)=C([C@H](CC)c2cccc(NS(=O)(=O)c3ccc(C(F)(F)F)cn3)c2)C(=O)O1 | 477 clinical isolates delavirdine-resistant | - | PBMC | p24 | 0.04 µM
CC1=CCCC2C1(C)CCC(C)[C@@]2(C)CC1=CC(=O)C(N[C@@H]2C(O)O[C@@H](CO)C(O)C2O)=CC1=O | IIIB | - | C8166 | syncytia | >7.1 µM
Cc1cn([C@H]2C[C@H](N=[N+]=[N-])[C@@H](CO)O2)c(=O)[nH]c1=O | SF162 | - | ACH2 + TZM-bl | luciferase | 0.00805 µM
Nc1ccn([C@@H]2CS[C@H](CO)O2)c(=O)n1 | NL4-3 | - | Jurkat cells | luciferase | 7.7 µM
Nc1nc2c(ncn2[C@H]2CC[C@@H](CO)O2)c(=O)[nH]1 | LAV | - | C3 | p24 | 3.3 µM
CC1=CCCC2C1(C)CCC(C)[C@@]2(C)CC1=CC(=O)C(NC(C)C(=O)O)=CC1=O | IIIB | - | C8166 | syncytia | >5.7 µM
Cc1cn([C@H]2C[C@H](N=[N+]=[N-])[C@@H](CO)O2)c(=O)[nH]c1=O | LAV | - | C3 | RT activity | 0.33 µM
Cc1ccc(C[C@H](NC(=O)c2cccc(O)c2C)[C@H](O)C(=O)N2C[C@@H](Cl)C[C@H]2C(=O)NC(C)(C)C)cc1C | IIIB | - | CEM | p24 | 0.051 µM
CCCN(C(=O)OCc1ccc([N+](=O)[O-])cc1)C1CCN(CC[C@H](CN(C)S(=O)(=O)c2ccccc2)c2ccccc2)CC1 | YU-2 (M-tropic) | - | MAGI + MAGI-CCR5 | - | 0.02 µM
Cc1cn([C@H]2C[C@H](N=[N+]=[N-])[C@@H](CO)O2)c(=O)[nH]c1=O | XM-ABC-resistant | RT-K65R L74V M184V Y115F | MT-4 | p24 | 0.04 µM
O=C(O)c1ccccc1CCCC1(O)CCN(C[C@H]2CN(CC3CCCCC3)C[C@@H]2c2ccccc2)CC1 | BaL | - | HeLa | β-galactosidase | >1 µM
CC1=CCCC2C1(C)CCC(C)[C@@]2(C)CC1=CC(=O)C(NC(CC(C)C)C(=O)O)=CC1=O | IIIB | - | C8166 | syncytia | 1.1 µM
Cn1cc(C(=O)N[C@@H](CC(N)=O)C(=O)N[C@@H](Cc2ccccc2)[C@H](O)C(=O)N2C[C@@H](Cl)C[C@H]2C(=O)NC(C)(C)C)c2ccccc21 | IIIB | - | MOLT-4/HIV-1(IIIB) + MOLT-4 | p24 | 2.1 µM
Cc1c(Cc2ccccc2)[nH]c(=O)[nH]c1=O | IIIB | - | MT-4 | MTT / virus yield | >200 µM
CCC(C1=C(O)CC(CCC2CC2)(CCC2CC2)OC1=O)c1cccc(NS(=O)(=O)c2ccc(C#N)cn2)c1 | IIIB | - | H9 | - | 1 µM
O=c1[nH]cnc2c1ncn2[C@H]1CC[C@@H](CO)O1 | NL4-3 WT | - | MT-4 | p24 | 6.5 µM
CCCC1(CCc2ccc(F)cc2)CC(O)=C(C(CC)c2cccc(NS(=O)(=O)c3ccc(C#N)cn3)c2)C(=O)O1 | IIIB | - | H9 | - | 0.8 µM
CC(C)(C)NC(=O)[C@@H]1CN(Cc2cccnc2)CCN1C[C@@H](O)C[C@@H](Cc1ccccc1)C(=O)N[C@H]1c2ccccc2C[C@H]1O | IIIB | - | CEM + CEM-SS | - | 0.027 µM
CC1=CCC[C@H]2[C@](C)(Cc3cc(O)ccc3O)[C@@H](C)CC[C@]12C | IIIB | - | C8166 | syncytia | 2.9 µM
C[C@H](Cn1cnc2c(N)ncnc21)OCP(=O)(O)O | NL4-3 | - | Jurkat cells | luciferase | 3.65 µM
CC(C)(C)NC(=O)[C@@H]1C[C@@H]2CCCC[C@@H]2CN1C[C@@H](O)[C@H](Cc1ccccc1)NC(=O)[C@H](CC(N)=O)NC(=O)c1ccc2ccccc2n1 | NL4-3 | PR-D30N A71V | MT-4 | p24 | 0.01 µM
COc1ccc(-c2c3c(cc4cc(OC)c(OC)cc24)CN(C(C)C)C3)cc1OC | CONB/pNL43E-Luc+ | - | U87 (CD4+ CCR5+) + U87 | luciferase | 15.43 µg/mL
CCn1cc(Cc2ccccc2)c(C2CCN(C[C@H]3CN([C@@H](C(=O)O)C4CCCCC4)C[C@@H]3c3ccccc3)CC2)n1 | BaL | - | HeLa | β-galactosidase | >0.3 µM
Nc1c(S(=O)(=O)O)cc2c3c(cc(S(=O)(=O)O)cc13)C(=O)N(NC(=O)N/N=C/c1ccc(-c3ccc(/C=N/NC(=O)NN4C(=O)c5cc(S(=O)(=O)O)cc6c(N)c(S(=O)(=O)O)cc(c56)C4=O)cc3)cc1)C2=O | LAV | - | - | RT activity | 146.9 µM
CC(C)[C@H](NC(=O)N(C)Cc1ccccn1)C(=O)N[C@@H](Cc1ccccc1)[C@H](O)[C@@H](O)[C@H](Cc1ccccc1)NC(=O)[C@@H](NC(=O)N(C)Cc1ccccn1)C(C)C | IIIB | - | ATH8 | cytopathic effect / trypan blue | 0.9 µM
O=C(O)[C@@H](C1CCCCC1)N1C[C@H](CN2CCC(c3cc(-c4ccc(Cl)cc4)n[nH]3)CC2)[C@@H](c2cccc(F)c2)C1 | BaL | - | HeLa | β-galactosidase | >0.3 µM
CC(C)(O)c1ccc(CN2C(=O)N(Cc3ccc(C(C)(C)O)cc3)[C@H](Cc3ccccc3)[C@H](O)[C@@H](O)[C@H]2Cc2ccccc2)cc1 | RF | - | MT-2/MT-4 + MT-2 | - | 8.04 µM
CC(C)(C)NC(=O)[C@@H]1[C@@H](Cl)CCN1C(=O)[C@@H](O)[C@H](Cc1ccccc1)NC(=O)[C@H](CC(N)=O)NC(=O)OCc1ccccc1 | IIIB | - | CEM | p24 | 1.5 µM
Cc1nnc(C(=O)NC(C)(C)c2nc(C(=O)NCc3ccc(F)cc3)c(O)c(=O)n2C)o1 | SF162 | - | ACH2 + TZM-bl | luciferase | 0.00127 µM
Nc1nc(N)c2ncn([C@H]3CC[C@@H](CO)O3)c2n1 | LAV | - | C3 | p24 | 26 µM
Nc1ncnc2c1ncn2CCOCP(=O)(O)O | LAV | - | C3 | RT activity | 27 µM
CC1=CCCC2C1(C)CCC(C)[C@@]2(C)CC1=CC(=O)C(NC(Cc2ccccc2)C(=O)O)=CC1=O | IIIB | - | C8166 | syncytia | >8 µM
CCn1ncc(Cc2ccccc2)c1C1CCN(C[C@H]2CN([C@@H](C(=O)O)C3CCCCC3)C[C@@H]2c2ccccc2)CC1 | BaL | - | HeLa | β-galactosidase | 0.0069 µM
Nc1nc(=O)n([C@@H]2CS[C@H](CO)O2)cc1F | NL4-3 | - | Jurkat cells | luciferase | 0.651 µM
Nc1c(S(=O)(=O)O)cc2c3c(cc(S(=O)(=O)O)cc13)C(=O)N(NC(=O)N/N=C\c1ccc(-c3ccc(C=O)cc3)cc1)C2=O | LAV | - | - | RT activity | 465.5 µM
COc1ccc(S(=O)(=O)N(CC2CCCC2)C[C@@H](O)[C@H](Cc2ccccc2)NC(=O)O[C@H]2CCOC2)cc1 | IIIB | - | CEM + CEM-SS | p24 | 0.023 µM
CC(C)(C)NC(=O)[C@@H]1C[C@H](Cl)CN1C(=O)[C@@H](O)[C@H](Cc1ccccc1)NC(=O)[C@H](CC(N)=O)NC(=O)OCc1ccccc1 | IIIB | - | CEM | p24 | 0.5 µM
COC(=O)[C@H](C)NP(=O)(OC[C@@H]1CC[C@H](n2ccc(N)nc2=O)O1)Oc1ccccc1 | BaL | - | MM + M/M | antigen | 0.48 µM
Nc1ccccn1 | - | - | CEM-T4 | MTT | >20 µM
CCCC1(CCc2ccccc2)CC(O)=C(C(c2cccc(NS(=O)(=O)c3ccc(N)cn3)c2)C(C)(C)C)C(=O)O1 | IIIB | - | H9 | - | 0.9 µM
COC(=O)[C@H](C)NP(=O)(OC[C@@H]1C=C[C@H](n2cnc3c(N)ncnc32)O1)Oc1ccccc1 | BaL | - | MM + M/M | antigen | 0.03 µM

An empty or dashed field is not shown. ECn is the concentration giving n% inhibition of infection, replication or growth.